Results of unrelated studies side by side (data: NIAID ChemDB).

All rows: tests in culture

Percent inhibition refers to the dose given; in toxicity tests it is the harm to the cells. Two numbers with a dash give a range or band. ECn: concentration that inhibits the pathogen or its effect by n%. Zones are inhibition diameters on agar. A number after MIC or MFC names an inhibition level or a share of isolates. Blank or dashed fields: not listed here. Neighbouring rows are from separate reports.

compound | organism | strain | cells | method | setting | endpoint | tested at | result
CNC(=S)Nc1ccc2c(c1)Cc1cc(Br)ccc1-2 | Hepatitis C virus | - | Ava5-EG(delta4AB)SEAP | reporter gene / fluorescence | - | EC50 | - | 0.001–1 µM
COc1cc(C2OC(c3sc4ccc(Cl)cc4c3Cl)=NN2C(C)=O)cc(OC)c1OC | Pseudomonas aeruginosa | ATCC 27853 | - | agar diffusion / agar | - | zone | 40 µg/mL | 18 mm
COc1ccc(OCc2ccccc2C(=O)NC(=S)Nc2ccc([N+](=O)[O-])cc2)cc1 | Toxoplasma gondii | RH beta-gal | Human foreskin fibroblasts (HFF) | - | - | EC50 | - | 55 µM
NC(=S)Nc1ccc2c(c1)Cc1cc(N(CCCc3ccccc3)CCCc3ccccc3)ccc1-2 | Hepatitis C virus | - | Ava5-EG(delta4AB)SEAP | reporter gene / fluorescence | - | EC50 | - | 0.001–1 µM
Oc1ccccc1N=Cc1ccccc1 | Cryptococcus gattii | LMM 818 | - | - | - | MIC99 | - | 5.7 µg/mL
COc1ccc2oc(=O)n(-c3ccc(F)cc3)c(=S)c2c1 | Mycobacterium kansasii | 6509/96 | - | - | 21 d | MIC | - | 16 µM
Cc1ccccc1Cn1ccc2nc(-c3ccccc3)nc-2c1 | Bovine viral diarrhea virus | PE515 | MDBK | cytopathic effect | - | EC50 | - | 0.019 µg/mL
COc1ccc(OCc2ccccc2C(=O)NC(=S)Nc2cccc([N+](=O)[O-])c2)cc1 | Toxoplasma gondii | RH beta-gal | Human foreskin fibroblasts (HFF) | - | - | EC50 | - | 104 µM
Cc1cc(NS(=O)(=O)c2ccc(NC(=S)Nc3ccccc3Cl)cc2)no1 | SIV | - | CEM174 | syncytia | - | EC50 | - | 8 µM
CC(=O)N1N=C(c2sc3ccc(Cl)cc3c2Cl)OC1c1ccccc1 | Pseudomonas aeruginosa | - | - | - | - | zone | 40 µg/mL | 10 mm
Cc1cc(NS(=O)(=O)c2ccc(NC(=S)NCc3ccccc3)cc2)no1 | SIV | - | CEM174 | syncytia | - | EC50 | - | 7.8 µM
CC(=O)N[C@H]1[C@H]([C@H](O)[C@H](O)CO)OC(C(=O)O)=C[C@@H]1N=C(N)N | Influenza B virus | HONG KONG/5/72 | MDCK | - | - | EC50 | - | 1 µM
O=C(NCCO)NNC(=O)Nc1cc(C(F)(F)F)cc(C(F)(F)F)c1 | Klebsiella pneumoniae | KL21 | - | - | - | MIC | - | >300 µM
Fc1cccc(Cn2cnc3c(Nc4cccc(F)c4)nc(C(F)(F)F)nc32)c1 | Rhinovirus | Serotype 24 | M-HELA | plaque count | - | EC50 | - | 1.9 µM
O=C(NC(=S)Nc1ccc(Cl)cc1Cl)c1ccccc1COc1ccc(Cl)cc1 | Toxoplasma gondii | RH beta-gal | Human foreskin fibroblasts (HFF) | - | - | EC50 | - | 97 µM
COc1ccccc1NC(=S)Nc1ccc(S(=O)(=O)Nc2cc(C)on2)cc1 | SIV | - | CEM174 | syncytia | - | EC50 | - | 6.4 µM
Oc1cccc(C=Nc2ccccc2O)c1 | Cryptococcus neoformans | VM-MCMMPI | - | - | - | MIC99 | - | 4 µg/mL
COC(=O)c1ccc(NC(=S)Nc2ccc(S(=O)(=O)Nc3cc(C)on3)cc2)cc1 | SIV | - | CEM174 | syncytia | - | EC50 | - | 1.7 µM
CC(=O)Nc1ccc(C(=O)O)cc1 | Pneumocystis carinii | - | - | - | - | inhibition | 3000 µM | 87%
Nc1ccn(C[C@@H](CO)OCP(=O)(O)O)c(=O)n1 | Human herpesvirus 6 | TYPE 6A | MOLT-3 | cytopathic effect | - | EC50 | - | 2 µg/mL
CCOC(=O)c1ccc(OCCC2CCN(c3ccc(C)nn3)CC2)cc1 | Rhinovirus | CH47 (ICAM-1 receptor group 57) | KB | neutral red | - | EC50 | - | 0.079 µM
FC(F)(F)c1cccc(Cn2ccc3nc(-c4ccccc4)nc-3c2)c1 | Bovine viral diarrhea virus | PE515 | MDBK | cytopathic effect | - | EC50 | - | 0.58 µg/mL
COc1c(CN(C)C)cccc1C1OC(c2ccncc2)=NN1C(C)=Nc1ccccc1 | Pseudomonas aeruginosa | MTCC 2453 | - | - | - | MIC | - | 50 µg/mL
Fc1cccc(F)c1-c1nc2ccn(CCc3ccccc3)cc-2n1 | Bovine viral diarrhea virus | PE515 | MDBK | cytopathic effect | - | EC50 | - | 0.06 µg/mL
Cc1cc(NS(=O)(=O)c2ccc(NC(=S)Nc3ccc(C#N)cc3)cc2)no1 | SIV | - | CEM174 | syncytia | - | EC50 | - | 4.1 µM
COc1ccc(Cc2cn(Cc3ccc(O)cc3)c(=N)n2C)cc1 | Saccharomyces cerevisiae | ATCC 18824 | - | - | - | MIC | - | >100 µg/mL
Cc1ccc(Cn2cnc3c(N(C)c4ccccc4)nc(C(F)(F)F)nc32)cc1 | Rhinovirus | Serotype 4 | M-HELA | plaque count | - | EC50 | - | 5.1 µM
Oc1ccccc1N=Cc1ccc(F)cc1 | Cryptococcus neoformans | 27JF | - | - | - | MIC99 | - | 16 µg/mL
COc1ccc(C2OC(c3sc4ccc(Cl)cc4c3Cl)=NN2C(C)=O)cc1 | Pseudomonas aeruginosa | ATCC 27853 | - | agar diffusion / agar | - | zone | 40 µg/mL | 22 mm
C=CCc1ccc(OC)c(OC)c1 | Candida albicans | 3253 | - | turbidity | - | MIC90 | - | 340 µg/mL
O=C(Nc1cc(C(F)(F)F)cc(C(F)(F)F)c1)NS(=O)(=O)c1ccc(OC(F)(F)F)cc1 | Escherichia coli | ES142 | - | - | - | MIC | - | >200 µM
Cc1cc(NS(=O)(=O)c2ccc(NC(=S)Nc3ccc(Br)cc3)cc2)no1 | SIV | - | CEM174 | syncytia | - | EC50 | - | 3.9 µM
COc1ccc2oc(=S)n(-c3ccc(Cl)c(Cl)c3)c(=S)c2c1 | Mycobacterium kansasii | My 235/80 | - | - | 21 d | MIC | - | 32 µM
CCCCCOc1ccc(-c2cc(-c3ccc(C(=O)N[C@H]4C[C@@H](O)[C@@H](O)NC(=O)[C@@H]5[C@@H](O)[C@@H](C)CN5C(=O)[C@H]([C@H](O)CC(N)=O)NC(=O)[C@H]([C@H](O)[C@@H](O)c5ccc(O)c(OS(=O)(=O)O)c5)NC(=O)[C@@H]5C[C@@H](O)CN5C(=O)[C@H]([C@@H](C)O)NC4=O)cc3)no2)cc1 | Candida spp. | fluconazole-sensitive | - | broth dilution | - | MIC90 | - | 1 µg/mL
COc1c(CN(C)C)cccc1C1OC(c2ccncc2)=NN1C(C)=Nc1ccccc1Cl | Pseudomonas aeruginosa | MTCC 2453 | - | - | - | MIC | - | 3.12 µg/mL
CCC(CC)O[C@@H]1C=C(C(=O)O)C[C@H](N)[C@H]1NC(C)=O | Influenza B virus | Isolate G42 | MDCK | plaque count | - | EC50 | - | 0.125 µg/mL
C[C@@H](c1ncncc1F)[C@](O)(Cn1cncn1)c1ccc(F)cc1F | Candida spp. | fluconazole-sensitive | - | broth dilution | - | MIC90 | - | 0.13 µg/mL
COc1ccc(OCc2ccccc2C(=O)NC(=S)Nc2ccccc2C)cc1 | Toxoplasma gondii | RH beta-gal | Human foreskin fibroblasts (HFF) | - | - | EC50 | - | 43 µM
CSc1ccc(C2OC(c3sc4ccc(Cl)cc4c3Cl)=NN2C(C)=O)cc1 | Pseudomonas aeruginosa | ATCC 27853 | - | agar diffusion / agar | - | zone | 40 µg/mL | 13 mm
COc1ccc(OCCCCCOc2cccc(NC(N)=S)c2)cc1 | Hepatitis C virus | - | Ava5-EG(delta4AB)SEAP | reporter gene / fluorescence | - | EC50 | - | 0.001–1 µM
Oc1ccccc1N=Cc1cccc(O)c1O | Cryptococcus gattii | 29/10893 | - | - | - | MIC99 | - | 4 µg/mL
NC(=S)Nc1cccc(OCCCCCOc2ccc(N3CCCCC3)cc2)c1 | Hepatitis C virus | - | Ava5-EG(delta4AB)SEAP | reporter gene / fluorescence | - | EC50 | - | 0.001–1 µM
Fc1ccc(Cn2cnc3c(Nc4cccc(F)c4)nc(C(F)(F)F)nc32)cc1 | Rhinovirus | Serotype 4 | M-HELA | plaque count | - | EC50 | - | 13 µM
CC(C)c1nc2ccccc2c(=O)n1NC(=O)Nc1cc(C(F)(F)F)cc(C(F)(F)F)c1 | Klebsiella pneumoniae | KL21 | - | - | - | MIC | - | >300 µM
Cc1ccc(-n2c(=S)oc3ccc(Br)cc3c2=S)cc1 | Mycobacterium kansasii | 6509/96 | - | - | 21 d | MIC | - | 4 µM
O=C(NC(=S)Nc1ccc(I)cc1)c1ccccc1COc1ccc(Cl)cc1 | Toxoplasma gondii | RH beta-gal | Human foreskin fibroblasts (HFF) | - | - | EC50 | - | 104 µM
CCOC(=O)c1c(C)nc(NCCCCNc2ccnc3cc(Cl)ccc23)nc1-c1ccccc1 | Cryptococcus gattii | 135L/03 | - | - | - | MIC99 | - | 8 µg/mL
O=C(NNc1ccccn1)Nc1cc(C(F)(F)F)cc(C(F)(F)F)c1 | Escherichia coli | ES142 | - | - | - | MIC | - | >300 µM
CCOC(=O)c1c(C)nc(NCCCCNc2ccnc3cc(Cl)ccc23)nc1-c1ccccc1[N+](=O)[O-] | Cryptococcus neoformans | C-3-1 | - | - | - | MIC99 | - | 2 µg/mL
Fc1ccccc1-c1nc2ccn(Cc3ccc(I)cc3)cc-2n1 | Bovine viral diarrhea virus | - | MDBK | cytopathic effect | - | EC50 | - | 0.088 µg/mL

The first 6 rows once more:

CNC(=S)Nc1ccc2c(c1)Cc1cc(Br)ccc1-2 ; organism: Hepatitis C virus ; cells: Ava5-EG(delta4AB)SEAP ; method: reporter gene / fluorescence ; endpoint: EC50 ; result: 0.001–1 µM
COc1cc(C2OC(c3sc4ccc(Cl)cc4c3Cl)=NN2C(C)=O)cc(OC)c1OC ; organism: Pseudomonas aeruginosa ; strain: ATCC 27853 ; method: agar diffusion / agar ; endpoint: zone ; tested at: 40 µg/mL ; result: 18 mm
COc1ccc(OCc2ccccc2C(=O)NC(=S)Nc2ccc([N+](=O)[O-])cc2)cc1 ; organism: Toxoplasma gondii ; strain: RH beta-gal ; cells: Human foreskin fibroblasts (HFF) ; endpoint: EC50 ; result: 55 µM
NC(=S)Nc1ccc2c(c1)Cc1cc(N(CCCc3ccccc3)CCCc3ccccc3)ccc1-2 ; organism: Hepatitis C virus ; cells: Ava5-EG(delta4AB)SEAP ; method: reporter gene / fluorescence ; endpoint: EC50 ; result: 0.001–1 µM
Oc1ccccc1N=Cc1ccccc1 ; organism: Cryptococcus gattii ; strain: LMM 818 ; endpoint: MIC99 ; result: 5.7 µg/mL
COc1ccc2oc(=O)n(-c3ccc(F)cc3)c(=S)c2c1 ; organism: Mycobacterium kansasii ; strain: 6509/96 ; setting: 21 d ; endpoint: MIC ; result: 16 µM